# PSTVd stem 3 mutant pool in Nicotiana benthamiana

Region: stem 3 of PSTVd (intermediate strain), upper and lower strand joined, each 5' to 3', the first 8 letters being the upper strand. Wild type: GUGGUUCCGGAACCGC. Varied positions (N): GUGGUUCCGNANNCNN.

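Three N. benthamiana plants were inoculated with the whole mutant pool. Progeny were sequenced from the inoculated region (day 5), the margin of the inoculated leaf (day 10) and systemic leaves (day 12).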

Values are reads per thousand in the sample; higher means more abundant, 0 means not found.
Each site shows the three plants.
"Pool" is the share in the plasmid pool used as inoculum, on the same scale.
The inoculated region was read from the minus strand, the other sites from the plus strand.

sequence,pool,inoculated region,leaf margin,systemic leaves
GUGGUUCCGAAUGCUU,0.616,0.586 0.755 0.865,0.0567 0 0.433,0 0 0
GUGGUUCCGAAUGGCA,0.0154,0 0 0,0 0 0,0 0 0
GUGGUUCCGAAUGGUA,0.323,0.533 0.518 0.784,0.312 0 0.506,0 0 0
GUGGUUCCGAAUUCAA,0.831,0.880 0.927 0.946,0.0283 1.43 0.506,0 0 0
GUGGUUCCGAAUUCAC,1.22,1.04 0.690 0.594,1.47 1.05 0.433,1.08 1.25 0.705
GUGGUUCCGAAUUCAG,1.45,1.25 1.01 1.32,1.84 0.986 0.253,1.68 0.904 0.632
GUGGUUCCGAAUUCAU,1.39,1.09 1.19 0.919,1.56 0.954 0.433,1.45 1.59 0.632
GUGGUUCCGAAUUCCA,0.970,0.746 0.647 1.03,0 1.08 0.397,0 0 0
GUGGUUCCGAAUUCCC,0.970,0.800 0.733 0.973,0 0.923 0.469,0 0 0
GUGGUUCCGAAUUCCG,0.662,0.533 0.647 1.19,0 0 0.542,0 0 0
GUGGUUCCGAAUUCCU,0.631,0.693 0.712 0.811,0 0.986 0.289,0 0 0
GUGGUUCCGAAUUCGA,0.816,1.07 0.582 0.567,0 0 0.433,0 0 0
GUGGUUCCGAAUUCGC,0.739,0.693 0.841 0.946,0 0 0.361,0 0 0
GUGGUUCCGAAUUCGG,0.831,0.773 0.776 1.08,0 0 0,0 0 0
GUGGUUCCGAAUUCGU,0.600,0.560 0.668 1.11,0 0.0318 0,0 0 0
GUGGUUCCGAAUUCUA,2.03,1.47 1.42 1.46,0 0.0318 0,0.112 0.0369 0
GUGGUUCCGAAUUCUC,0.846,1.09 0.647 0.540,0 0 0,0 0.0369 0
GUGGUUCCGAAUUCUG,0.985,0.826 0.647 1.22,0 1.30 0.614,0 0 0
GUGGUUCCGAAUUCUU,1.45,0.720 1.06 1.24,1.36 0.827 0.361,1.47 1.29 0.705
GUGGUUCCGACAACAC,0.0154,0.293 0.410 0.649,0.368 0 0.325,0 0 0
GUGGUUCCGACCAGGA,0.0308,0 0 0,0 0 0,0 0 0
GUGGUUCCGACGCCAA,0.400,0.746 0.863 1.38,1.27 1.37 0.722,1.17 1.27 0.608
GUGGUUCCGACUAAGU,0.677,0.693 0.604 0.973,0 0 0.217,0 0 0
GUGGUUCCGAUAUCAU,0.0154,0.453 0.302 0.594,1.56 1.18 0.397,1.16 1.38 0.705
GUGGUUCCGCAAACAA,0.677,0.347 0.345 0.162,0 0 0.0361,0 0 0
GUGGUUCCGCAAACAC,0.831,0.347 0.431 0.378,0 0.0636 0.0361,0 0 0
GUGGUUCCGCAAACAG,0.693,0.213 0.302 0.216,0.0283 0 0,0 0 0
GUGGUUCCGCAAACAU,0.662,0.773 0.733 0.838,0.0283 0 0.325,0 0 0
GUGGUUCCGCAAACCA,0.800,0.453 0.302 0.351,0 0.0636 0,0 0 0
GUGGUUCCGCAAACCC,0.754,0.213 0.453 0.243,0.0283 0 0,0 0 0
GUGGUUCCGCAAACCG,1.52,0.640 0.798 0.540,0 0 0,0.0186 0 0
GUGGUUCCGCAAACCU,0.893,0.400 0.151 0.162,0 0.0318 0.0361,0 0 0
GUGGUUCCGCAAACGA,0.893,0.373 0.237 0.270,0 0 0,0 0 0
GUGGUUCCGCAAACGC,0.800,0.240 0.410 0.189,0 0.0318 0,0 0 0
GUGGUUCCGCAAACGG,0.862,0.160 0.259 0.216,0 0 0,0 0 0
GUGGUUCCGCAAACGU,0.723,0.347 0.280 0.297,0 0 0.0361,0 0 0
GUGGUUCCGCAAACUA,0.631,0.213 0.367 0.297,0 0 0,0 0 0
GUGGUUCCGCAAACUC,0.846,0.240 0.302 0.243,0 0 0.0361,0 0 0
GUGGUUCCGCAAACUG,0.816,0.373 0.237 0.243,0 0 0,0 0 0
GUGGUUCCGCAAACUU,1.45,0.347 0.561 0.432,0 0 0,0.149 0 0
GUGGUUCCGCAACCAA,0.846,0.347 0.367 0.189,0 0 0,0 0 0
GUGGUUCCGCAACCAC,1.89,0.960 0.690 0.892,0 0 0,0.0559 0 0
GUGGUUCCGCAACCAG,0.954,0.267 0.237 0.297,0 0.0636 0,0 0 0
GUGGUUCCGCAACCAU,0.908,0.666 0.712 1.11,0.0283 0 0,0 0 0
GUGGUUCCGCAACCCA,1.02,0.400 0.237 0.324,0 0 0.0361,0 0 0
GUGGUUCCGCAACCCC,0.754,0.400 0.216 0.378,0 0.0318 0,0 0 0
GUGGUUCCGCAACCCG,0.739,0.240 0.474 0.270,0 0.0318 0.0361,0 0 0
GUGGUUCCGCAACCCU,0.585,0.506 0.367 0.378,0 0.0636 0.0361,0 0 0
GUGGUUCCGCAACCGA,0.877,0.320 0.280 0.297,0 0 0.0361,0 0 0.0243
GUGGUUCCGCAACCGC,0.923,0.320 0.280 0.243,0.0567 0.127 0.0361,0.0932 0.0922 0.0730
GUGGUUCCGCAACCGG,0.739,0.293 0.453 0.378,0 0.0318 0.0361,0 0 0
GUGGUUCCGCAACCGU,0.862,0.320 0.302 0.162,0 0 0,0 0 0
GUGGUUCCGCAACCUA,0.939,0.320 0.323 0.270,0 0 0.0722,0 0 0
GUGGUUCCGCAACCUC,0.785,0.293 0.410 0.270,0 0 0.0361,0 0 0
GUGGUUCCGCAACCUG,0.908,0.373 0.474 0.297,0 0 0,0 0 0
GUGGUUCCGCAACCUU,0.800,0.560 0.194 0.162,0 0 0,0 0 0.0243
GUGGUUCCGCAAGCAA,0.923,0.320 0.302 0.135,0 0.0318 0.0361,0 0 0
GUGGUUCCGCAAGCAC,0.862,0.453 0.410 0.108,0 0 0,0 0 0
GUGGUUCCGCAAGCAG,0.723,0.240 0.453 0.270,0 0.0318 0,0 0 0
GUGGUUCCGCAAGCAU,0.723,0.880 0.582 0.838,0 0 0.289,0 0 0
GUGGUUCCGCAAGCCA,0.769,0.560 0.280 0.324,0.0283 0 0,0 0 0
GUGGUUCCGCAAGCCC,0.862,0.320 0.367 0.405,0 0 0.0361,0 0 0
GUGGUUCCGCAAGCCG,0.723,0.426 0.323 0.162,0 0 0,0 0 0
GUGGUUCCGCAAGCCU,0.862,0.453 0.367 0.216,0 0.0318 0,0 0 0
GUGGUUCCGCAAGCGA,2.14,1.17 0.906 0.892,0 0 0.0361,0.112 0 0
GUGGUUCCGCAAGCGC,1.08,0.506 0.582 0.405,0.0283 0.0318 0.0722,0 0 0.146
GUGGUUCCGCAAGCGG,1.52,0.560 0.582 0.703,0.340 0 0.0361,0 0 0
GUGGUUCCGCAAGCGU,0.646,0.426 0.367 0.189,0 0 0,0 0 0

The opening 8 entries, copied out:

sequence	pool	inoculated region	leaf margin	systemic leaves
GUGGUUCCGAAUGCUU	0.616	0.586 0.755 0.865	0.0567 0 0.433	0 0 0
GUGGUUCCGAAUGGCA	0.0154	0 0 0	0 0 0	0 0 0
GUGGUUCCGAAUGGUA	0.323	0.533 0.518 0.784	0.312 0 0.506	0 0 0
GUGGUUCCGAAUUCAA	0.831	0.880 0.927 0.946	0.0283 1.43 0.506	0 0 0
GUGGUUCCGAAUUCAC	1.22	1.04 0.690 0.594	1.47 1.05 0.433	1.08 1.25 0.705
GUGGUUCCGAAUUCAG	1.45	1.25 1.01 1.32	1.84 0.986 0.253	1.68 0.904 0.632
GUGGUUCCGAAUUCAU	1.39	1.09 1.19 0.919	1.56 0.954 0.433	1.45 1.59 0.632
GUGGUUCCGAAUUCCA	0.970	0.746 0.647 1.03	0 1.08 0.397	0 0 0

The authors trace changes outside the varied positions to PCR and sequencing errors or to mutation in the plant; presence does not show that a variant is infectious alone.
For reference, wild type rose from 17.3 per thousand in the pool to 330, 345, 235 (inoculated region), 794, 766, 816 (leaf margin) and 830, 792, 869 (systemic leaves).
With 27,691-54,225 reads a sample, very low values are single reads.

The measurements come from Wu et al. 2024 (doi:10.1371/journal.ppat.1012142).